PubChem BioAssay AID624099 | ICCB-Longwood | 2012
Shown is a random part of about 21,000 reagents tested. Over the whole deposit, 497 (2.4%) were called active. 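Higher z means weaker E2 silencing; only reporter increases were scored, and knock-downs that hurt cell survival may mask genuine repressor factors.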

Test: 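Host factors E2 relies on to silence an HPV18 LCR reporter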 (primary screen)
Cells: human C33A cervical carcinoma cells (HPV-negative) stably expressing BPV1 E2 and an HPV18 LCR luciferase reporter
Reagent: siRNA pool against human genes, 40 nM
Duration: 72 h
Read-out: 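HPV18 LCR reporter light per well, converted to plate-wise z-scores that exclude control wells, and averaged over triplicate plates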
Scale: mean z-score and z-score: higher = stronger reporter signal, weaker E2 silencing
Call rule: 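Hit if mean z-score reaches 2 and two or more of three replicate z-scores also reach 2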

The opening 7 entries as a preview:
| gene | mean z-score | z-score, replicate A | z-score, replicate B | z-score, replicate C | Outcome |
| --- | --- | --- | --- | --- | --- |
| P2RY6 | -0.17 | -0.11 | -0.44 | 0.03 | inactive |
| PALD1 | -1.28 | -1.32 | -1.19 | -1.33 | inactive |
| SLC7A2 | -0.08 | -0.05 | 0.09 | -0.26 | inactive |
| CDK2AP1 | -1.24 | -1.33 | -1.1 | -1.29 | inactive |
| LOC388300 (retired record) | -0.37 | -0.09 | -0.7 | -0.31 | inactive |
| C19orf84 | 0.1 | -0.67 | 0.96 | 0.02 | inactive |
| PPP2R2A | -0.15 | -0.06 | -0.2 | -0.2 | inactive |

Main list, repeating the preview:
| gene | mean z-score | z-score, replicate A | z-score, replicate B | z-score, replicate C | Outcome |
| --- | --- | --- | --- | --- | --- |
| P2RY6 | -0.17 | -0.11 | -0.44 | 0.03 | inactive |
| PALD1 | -1.28 | -1.32 | -1.19 | -1.33 | inactive |
| SLC7A2 | -0.08 | -0.05 | 0.09 | -0.26 | inactive |
| CDK2AP1 | -1.24 | -1.33 | -1.1 | -1.29 | inactive |
| LOC388300 (retired record) | -0.37 | -0.09 | -0.7 | -0.31 | inactive |
| C19orf84 | 0.1 | -0.67 | 0.96 | 0.02 | inactive |
| PPP2R2A | -0.15 | -0.06 | -0.2 | -0.2 | inactive |
| CLEC2A | 0.2 | 0.62 | -0.35 | 0.33 | inactive |
| VLDLR-AS1 | -0.58 | -0.66 | -0.55 | -0.52 | inactive |
| LENG1 | 1.86 | 1.81 | 1.97 | 1.8 | inactive |
| FOXE1 | 0.09 | 0.25 | 0.02 | 0 | inactive |
| TCF20 | 0.55 | 0.47 | 0.65 | 0.53 | inactive |
| CISD1 | 0.92 | 0.5 | 1.31 | 0.95 | inactive |
| NBPF22P | 0.32 | 0.58 | 0.18 | 0.2 | inactive |
| ANKRD13D | 0.26 | 0.05 | 0.25 | 0.48 | inactive |
| FIRRE | 2.01 | 1.78 | 2.28 | 1.99 | inactive |
| CLIP2 | 0.26 | 0.29 | 0.23 | 0.26 | inactive |
| ACTC1 | 1.97 | 1.94 | 1.85 | 2.11 | inactive |
| LOC388655 (retired record) | -0.65 | -1.04 | -0.5 | -0.4 | inactive |
| RIPK4 | 0.48 | 0.33 | 0.78 | 0.33 | inactive |
| LAMP5 | 0.03 | -0.02 | 0.06 | 0.03 | inactive |
| HEMK1 | -0.61 | -0.45 | -0.67 | -0.71 | inactive |
| C1RL-AS1 | 0.39 | 0.23 | 0.55 | 0.39 | inactive |
| ANK1 | 0.71 | 0.51 | 0.77 | 0.84 | inactive |
| ADSL | 0.67 | -0.01 | 0.79 | 1.23 | inactive |
| FLJ32154 (retired record) | 0.21 | 0.66 | 0.17 | -0.19 | inactive |
| ADRB3 | -0.37 | -0.49 | 0 | -0.61 | inactive |
| MGAT1 | 0.51 | 0.35 | 0.32 | 0.86 | inactive |
| PKIG | -0.04 | 0.04 | -0.14 | -0.01 | inactive |
| LSM3 | -0.99 | -1.24 | -1.23 | -0.51 | inactive |
| OR2G6 | -1.46 | -1.69 | -1.49 | -1.18 | inactive |
| LPCAT2 | -0.21 | 0.01 | -0.29 | -0.36 | inactive |
| PIKFYVE | -0.46 | -0.81 | -0.54 | -0.02 | inactive |
| RHNO1 | -0.25 | -0.28 | -0.12 | -0.34 | inactive |
| GON7 | -1.04 | -0.88 | -1.14 | -1.09 | inactive |
| TRADD | -0.75 | -0.81 | -0.58 | -0.85 | inactive |
| LOC391784 (retired record) | -0.69 | -0.05 | -1.11 | -0.9 | inactive |
| DCUN1D2 | 0.73 | 0.66 | 1.06 | 0.47 | inactive |
| E2F6 | 0.09 | -0.03 | 0.17 | 0.13 | inactive |
| LINC02764 | -1.31 | -1.34 | -1.5 | -1.1 | inactive |
| ZC3HC1 | 0.44 | 0.84 | 0.24 | 0.24 | inactive |
| PACS1 | 1.09 | 0.95 | 1.14 | 1.19 | inactive |
| REEP5 | 0.48 | 0.5 | 0.57 | 0.39 | inactive |
| PERP | -0.92 | -0.75 | -0.74 | -1.28 | inactive |
| TMEM126A | -0.16 | -0.25 | -0.04 | -0.2 | inactive |
| BCKDHA | 0.65 | 0.68 | 0.75 | 0.52 | inactive |
| GALNT15 | -1.91 | -1.68 | -1.93 | -2.13 | inactive |
| FAM151B | 0.56 | 0.93 | 0.67 | 0.07 | inactive |
| RDM1 | 0.25 | 0.09 | 0.17 | 0.49 | inactive |
| WDR3 | -1.04 | -0.87 | -0.93 | -1.31 | inactive |
| GLUD1 | 1.95 | 1.73 | 2.02 | 2.11 | inactive |
| SLC18B1 | 0.93 | 0.55 | 1.05 | 1.19 | inactive |
| ZNF560 | -0.03 | -0.32 | 0.49 | -0.25 | inactive |
| ATP7B | -0.79 | -0.76 | -0.67 | -0.95 | inactive |
| PLOD2 | 1.26 | 1.02 | 1.55 | 1.22 | inactive |
| MKI67 | 0.3 | 0.26 | 0.27 | 0.36 | inactive |
| H2BC21 | 0.72 | 1.29 | 0.69 | 0.17 | inactive |
